# Some results come without the dose or concentration used.
# Test system: THP1 cells
# Format: cell-based, human
# Settings: 24 hours, relative to vehicle
row,Compound,Common upregulated genes following treatment with CA-4948 and PF-06650833
1,"Cc1cc(-c2nc(C(=O)Nc3cc4oc(N5CCOCC5)nc4nc3N3CC[C@@H](O)C3)co2)ccn1 [CA-4948, emavusertib]",91
2,"CC[C@@H]1[C@H](F)C(=O)N[C@@H]1COc1nccc2cc(C(N)=O)c(OC)cc12 [PF-06650833, Zimlovisertib]",91

# Reference: US20260034112A1, “MULTI-CYCLIC IRAK1 AND IRAK4 INHIBITING COMPOUNDS AND USES THEREOF” (CHILDREN'S HOSPITAL MEDICAL CENTER, priority 2022, published 2026)
